Experimental data: PubChem BioAssay AID504761 (Drosophila RNAi Screening Center, 2011)

Aim: 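Fly genes whose silencing reduces dengue virus type 2 infection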 (primary screen)
Cell system: D.Mel-2 cells from Drosophila
Knock-down reagent: long dsRNA against Drosophila genes
Conditions: infection with dengue virus type 2; dose and infection time not stated
Read-out: 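Per well on two replicate plates, imaging gave the percent of cells positive for viral envelope protein, ranked by infection, and a nuclear count of cells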
Scale: infection score: higher = more virus-infected cells; cell count: higher = more cells in the well
Call rule: 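Low infection ranks in the two replicates (chance level up to 0.065) followed by a retest with a 1.5-fold or larger significant decrease, p below 0.05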
Calls: active = confirmed: knock-down lowers infection; inactive = not picked or not confirmed
In all, the deposit lists about 22,000 reagents; this is a random part of those that have a named target and a result. Of all reagents, 116 (0.52%) got an active call. 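Calls depend on retest data that are not deposited; infection was ranked per plate without normalising between plates; the unit of the infection score is not given.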 Raw values vary from plate to plate and are shown uncorrected. Reagents against one gene are numbered here. The record does not give: the amount of reagent, the time to read-out.

Depletion of CG6230 gave: infection score, replicate 1 = 10.1; infection score, replicate 2 = 1.14; cell count, replicate 1 = 6240; cell count, replicate 2 = 6424; inactive.
Fas3 (Fasciclin 3) #1 gave infection score, replicate 2 = 24.3; cell count, replicate 1 = 530; cell count, replicate 2 = 5759; inactive.
For Fas3 (Fasciclin 3) #2, the entry reads infection score, replicate 1 = 3.16; infection score, replicate 2 = 28.6; cell count, replicate 1 = 6294; cell count, replicate 2 = 5865; inactive.
Fas3 (Fasciclin 3) #3 showed infection score, replicate 1 = 6.23; cell count, replicate 1 = 1059; cell count, replicate 2 = 390; inactive.
Depletion of CG5543 gave: infection score, replicate 1 = 12.8; infection score, replicate 2 = 45; cell count, replicate 1 = 5535; cell count, replicate 2 = 4922; inactive.
With knock-down of Nop10 (Nop10 ribonucleoprotein) the results were infection score, replicate 1 = 23.4; infection score, replicate 2 = 1.83; cell count, replicate 1 = 4923; cell count, replicate 2 = 1039; inactive.
CG31224 #1 gave infection score, replicate 1 = 9.51; infection score, replicate 2 = 0.78; cell count, replicate 1 = 7014; cell count, replicate 2 = 7548; inactive.
After knock-down of CG31224 #2, the screen gave infection score, replicate 1 = 1.33; infection score, replicate 2 = 2.34; cell count, replicate 1 = 6776; cell count, replicate 2 = 7138; inactive.
asRNA:Eig63F-2 (antisense RNA:Ecdysone-induced gene 63F 2) showed infection score, replicate 1 = 5.66; infection score, replicate 2 = 5.44; cell count, replicate 1 = 6577; cell count, replicate 2 = 6049; inactive.
For Arf6 (ADP ribosylation factor 6), the entry reads infection score, replicate 1 = 6.21; infection score, replicate 2 = 14.6; cell count, replicate 1 = 6276; cell count, replicate 2 = 4922; inactive.
Against Ptp52F (Protein tyrosine phosphatase 52F) the deposit lists infection score, replicate 1 = 16.8; infection score, replicate 2 = 11.4; cell count, replicate 1 = 6627; cell count, replicate 2 = 5795; inactive.

Look-ups from the list:
Under “infection score, replicate 2”, CG6230 is entered as 1.14
Value of CG31224 #2 under “infection score, replicate 2”: 2.34

The listing continues:
Knock-down of CG30413 #1 came out at: infection score, replicate 1 = 0.67; infection score, replicate 2 = 0.19; cell count, replicate 1 = 6310; cell count, replicate 2 = 6164; inactive.
With knock-down of CG30413 #2, the record shows infection score, replicate 1 = 14.2; infection score, replicate 2 = 6.68; cell count, replicate 1 = 3489; cell count, replicate 2 = 5449; inactive.
For CG13699 #1, the values are infection score, replicate 1 = 7.17; infection score, replicate 2 = 1.26; cell count, replicate 1 = 6528; cell count, replicate 2 = 6527; inactive.
CG13699 #2 showed infection score, replicate 1 = 9.88; infection score, replicate 2 = 5.95; cell count, replicate 1 = 6213; cell count, replicate 2 = 6625; inactive.
After knock-down of mus304 (mutagen-sensitive 304), the screen gave infection score, replicate 1 = 2.79; infection score, replicate 2 = 2.42; cell count, replicate 1 = 6140; cell count, replicate 2 = 6369; inactive.
For CG17029 #1 the deposit lists infection score, replicate 1 = 1.78; infection score, replicate 2 = 1.97; cell count, replicate 1 = 6514; cell count, replicate 2 = 6384; inactive.
Depletion of CG17029 #2 resulted in: infection score, replicate 1 = 22.6; infection score, replicate 2 = 19.2; cell count, replicate 1 = 3528; cell count, replicate 2 = 2618; inactive.
Knock-down of CG10126 resulted in: infection score, replicate 1 = 10.4; infection score, replicate 2 = 27.2; cell count, replicate 1 = 2803; cell count, replicate 2 = 5515; inactive.
Silencing of CG30323 gave: infection score, replicate 1 = 10.9; infection score, replicate 2 = 7.76; cell count, replicate 1 = 7168; cell count, replicate 2 = 6518; inactive.
Silencing of CG4455 #1 resulted in: infection score, replicate 1 = 1.53; infection score, replicate 2 = 3.71; cell count, replicate 1 = 6726; cell count, replicate 2 = 7242; inactive.
Silencing of CG4455 #2 came out at: infection score, replicate 1 = 1.57; infection score, replicate 2 = 3.83; cell count, replicate 1 = 6182; cell count, replicate 2 = 6741; inactive.
disco-r (disco-related) #1 scored infection score, replicate 1 = 10.5; infection score, replicate 2 = 1.41; cell count, replicate 1 = 6217; cell count, replicate 2 = 6456; inactive.
disco-r (disco-related) #2 showed infection score, replicate 1 = 8.43; infection score, replicate 2 = 1.62; cell count, replicate 1 = 5777; cell count, replicate 2 = 6792; inactive.
For msk (moleskin) #1 the deposit lists infection score, replicate 1 = 6.78; infection score, replicate 2 = 5.4; cell count, replicate 1 = 6567; cell count, replicate 2 = 6465; inactive.
Silencing of msk (moleskin) #2 came out at: infection score, replicate 1 = 6.33; infection score, replicate 2 = 0.98; cell count, replicate 1 = 5828; cell count, replicate 2 = 6761; inactive.
CG5246 #1 gave infection score, replicate 1 = 2.09; infection score, replicate 2 = 6.45; cell count, replicate 1 = 6550; cell count, replicate 2 = 6297; inactive.
Against CG5246 #2, the values are infection score, replicate 1 = 14.6; infection score, replicate 2 = 8.34; cell count, replicate 1 = 6229; cell count, replicate 2 = 5982; inactive.
